In brackets after ≈: the same amount, converted by molar mass.
Columns and labels:
Assay in all cases: microbe, parasite or virus in culture
[1] = tested on: Candida globrata 566
[2] = tested on: Candida globrata 578
[3] = tested on: Candida krusei 638; conditions: Pichia kudriavzevii
[4] = tested on: Candida globrata 648
[5] = tested on: Candida krusei 603; conditions: Pichia kudriavzevii
[6] = tested on: Candida globrata 646
[7] = tested on: Candida globrata 572

`CCCCCCCCCCCN(C)C` [K-I2, dimethyl-undecyl-amine cyanodibromoborane] gave an MIC [1] of 20.2 µM (≈ 4.03 µg/mL), an MIC [2] of 40.4 µM (≈ 8.06 µg/mL) and an MIC [3] of 10.1 µM (≈ 2 µg/mL). For the same molecule, the MIC [4] was 20.2 µM (≈ 4.03 µg/mL), the MIC [5] was 10.1 µM (≈ 2 µg/mL) and the MIC [6] was 20.2 µM (≈ 4.03 µg/mL). For the same molecule, the MIC [7] was 40.4 µM (≈ 8.06 µg/mL).

From patent US20090131366A1, “Use of Amine-Borane Compounds as Anti-Microbial Agents” (priority 2005, published 2009)
